The results in this text go back to PubChem BioAssay AID1950 (The Scripps Research Institute Molecular Screening Center, 2009).

Only a part is listed here, and it is no random draw. Active and inactive are the calls of the source. Cut-off read from the data, not from the text of the source: active = inhibition above about 28%; inactive = the rest.

As usually defined, the inhibition is the change of the read-out against control, counted positive when it falls.

The assay has as its system EBNA-1 (Epstein-Barr virus nuclear antigen 1), Human herpesvirus 4. Briefly: EBNA-1 DNA-binding inhibitors, primary screen, biochemical, fluorescence polarization (AID 1950). The following applies: at 14.8 µM, hits give high values.
Regarding `CC1(CBr)Cn2c(nc3ccccc3c2=O)S1` (stereo not drawn), the inhibition was inactive: -9.36%.

Consider `O=[As](O)(c1ccccc1Br)c1ccccc1Br`, for which the inhibition was inactive: -7.2%.

Take `CN(C(=O)Cc1ccc(Cl)c(Cl)c1)[C@@H]1CCCC[C@H]1N1CCCC1`: the inhibition was inactive: 7.73%.

Regarding `CC(C)/C=N\N=C(\N)N[N+](=O)[O-]`, the inhibition was inactive: -12.1%.

Consider `COc1ccccc1CNC(=O)COC(=O)C(O)(c1ccccc1)c1ccccc1`, for which the inhibition was inactive: -3.83%.

`CC(C)(C)C(=O)NC(Sc1ncccn1)C(Cl)(Cl)Cl` (stereo not drawn): the inhibition is inactive: -2.16%.

For the compound `Clc1n[nH]nc1-c1nn[nH][15n]1`, the inhibition was inactive: 2%.

In the case of `CN(CCCl)Cc1cc(Cl)c(NC2=NCCN2)c(Cl)c1`, the inhibition was inactive: -3.94%.

On to `CCOP(=O)(Nc1ccc(C)cn1)OCC`, for which the inhibition is inactive: -1.13%.

In the case of `CCOP(=O)(NC(=NC(C)c1ccccc1)NC(C)c1ccccc1)OCC` (stereo not drawn), the inhibition was inactive: -8.2%.

With `CCC1=CC2Cc3nc4ccc(Cl)cc4c(N)c3C(C1)C2` (stereo not drawn), the inhibition is inactive: 4.02%.

Take `O=P1(Nc2ccccn2)COc2ccccc2OC1`: the inhibition is inactive: -16.8%.

Turning to `O=P1(Nc2ccc(Br)cn2)COc2ccccc2OC1`, the inhibition is inactive: -7.06%.

On to `Cc1ccc(OCC(=O)OC2CN3CCC2CC3)cc1` (stereo not drawn), for which the inhibition was inactive: 0.94%.

For `O=[As](O)(c1cccs1)c1cccs1`, the inhibition is inactive: -18.7%.

As to `Nc1cccc([As](=O)(O)c2ccccc2)c1`, the inhibition is inactive: -4.9%.

`O=P1(Nc2ncccn2)COc2ccccc2OC1`: the inhibition was inactive: 2.16%.

Regarding `O=C(/C=C/c1ccccc1)OC1CN2CCC1CC2` (stereo not drawn), the inhibition is inactive: -2.49%.

For `CN(C)C1(CNC(=O)c2ccc(S(C)(=O)=O)cc2)CCCCC1`, the inhibition was inactive: -2.53%.

In the case of `Cc1ccc(C(=O)OC2CN3CCC2CC3)cc1` (stereo not drawn), the inhibition is inactive: -9.17%.

`CC1CCC(C(C)C)C(OP(=O)(Nc2ccccn2)c2ccccc2)C1` (stereo not drawn): the inhibition is inactive: 3.42%.

On to `Cc1nn(-c2ccccc2)c2c1P(=O)(N1CCOCC1)N(C)C(c1ccccc1)=N2` (stereo not drawn), for which the inhibition was inactive: 2.12%.

For `CN(C(=O)Cc1ccc(Cl)c(Cl)c1)[C@H]1CC[C@@]2(CCCO2)C[C@@H]1N1CCCC1`, the inhibition was inactive: -0.71%.

Turning to `CN(C)C(=O)c1cc([N+](=O)[O-])cc2c1-c1c(cc([N+](=O)[O-])cc1[N+](=O)[O-])C2=O`, the inhibition was inactive: -9.48%.

For `O=[N+]([O-])c1ccc2c(c1)nnn2O`, the inhibition is inactive: 13.5%.

Take `CN(C(=O)Cc1ccccc1)[C@@H]1CC[C@]2(CCCO2)C[C@H]1N1CCCC1`: the inhibition was inactive: -5.64%.

For the compound `CCOP1(=S)c2c(C)nn(CCC#N)c2N=C(c2ccc(F)cc2)N1C` (stereo not drawn), the inhibition is inactive: 8.24%.

`N#CCCN(C(=O)COC(=O)C(O)(c1ccccc1)c1ccccc1)c1ccc(F)cc1`: the inhibition is inactive: 2.7%.
